# Reference: PubChem BioAssay AID504761 (Drosophila RNAi Screening Center, 2011)
# Aim: 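Genome-wide fly cell screen for genes dengue virus requires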 (primary screen)
# System: D.Mel-2 cells from Drosophila
# Knock-down reagent: long dsRNA against Drosophila genes
# Conditions: infection with dengue virus type 2; dose and infection time not stated
# Measured: 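Cells stained for dengue envelope protein and imaged; percent of infected cells per well on duplicate plates, ranked by infection, with stained nuclei counted for cell number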
# Direction: infection score: higher = more virus-infected cells
# Call rule: 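Low infection ranks in the two replicates (chance level up to 0.065) followed by a retest with a 1.5-fold or larger significant decrease, p below 0.05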
# Calls: active = confirmed: knock-down lowers infection; inactive = not picked or not confirmed
# In all, the deposit lists about 22,000 reagents; shown is an unselected part of those that have a named target and a result. Of all reagents, 116 (0.52%) are marked active. 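Calls depend on retest data that are not deposited; infection was ranked per plate without normalising between plates; the unit of the infection score is not given.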 The numbers tell different reagents against one gene apart. Names joined by + are all predicted targets of the reagent. Not all columns of the deposit are shown. Not stated in the record: the amount of reagent, the time to read-out.
predicted target,reagent,"infection score, replicate 1","infection score, replicate 2",activity call
CG11231 (retired record),1,0.33,2.99,inactive
CG2924,1,5.39,2.92,inactive
CG2924,2,13.3,5.2,inactive
CG8746,1,13.9,19,inactive
iav,1,11.4,7.88,inactive
iav,2,9.18,6.88,inactive
Cul4,1,10.6,4.54,inactive
Cul4,2,10.4,8.76,inactive
CG4676,1,24.8,15.4,inactive
ltl,1,2.07,5.81,inactive
ltl,2,1.97,3.1,inactive
Afti,1,8.34,12.1,inactive
Afti,2,21.7,11.4,inactive
Ubc87F,1,1.25,5.16,inactive
Ubc87F,2,8.82,7.97,inactive
sano,1,10.2,23.7,inactive
sano,2,5.7,5.6,inactive
Ssb-c31a,1,0.9,,inactive
Ssb-c31a,2,5.31,22.7,inactive
CG16853,1,2.9,3.71,inactive
CG15530,1,3.52,2.58,inactive
CG15530,2,,23.7,inactive
CG14929 + CG4970,1,27.6,24.2,inactive
CG14929 + CG4970,2,11.2,21.7,inactive
defl,1,3.35,2.24,inactive
CG31775 + CG42586,1,11.9,4.28,inactive
Rab9,1,0.96,1.81,inactive
CG33017,1,20.5,15.3,inactive
CG33017,2,24.6,17.5,inactive
Muc11A,1,4.13,7.17,inactive
Muc11A,2,13.3,8.16,inactive
CG14257,1,12.4,3.41,inactive
CG14257,2,30.8,33.1,inactive
CG6325,1,18.8,9.33,inactive
Fgop2,1,6.28,6.53,inactive
CG11898,1,0.56,2.57,inactive
CG11898,2,7.89,25.7,inactive
Tektin-C,1,1.88,8.73,inactive
Tektin-C,2,3.79,1.47,inactive
IntS14,1,0.89,1.09,inactive
RpS26,1,6.86,9.96,inactive
Mps1,1,17.9,19.1,inactive
CG10343,1,7.8,4.98,inactive
CG10343,2,9.9,17.9,inactive
CG10591,1,7.1,2.55,inactive
CG10591,2,17.5,12.4,inactive
Sik3,1,4.15,3.56,inactive
Sik3,2,4.09,5.87,inactive
Sik3,3,5.22,11.5,inactive
Sik3,4,30.9,6.47,inactive
Edem2,1,5.02,2.38,inactive
Edem2,2,2.25,6.08,inactive
dpr17,1,1.59,0.8,inactive
dpr17,2,4.29,8.91,inactive
CG14960,1,3.13,3.61,inactive
CG10365,1,5.55,1.6,inactive
CG14316,1,1.31,0.94,inactive
CG14194,1,8.89,3.27,inactive
